Anti-infective test results gathered from many reports (values: NIAID ChemDB through PubChem).

All rows: whole-cell or culture tests; species: Candida albicans; read-out: MIC

Lines come from different laboratories, so protocols vary.

{"SMILES": "CCCCCOc1ccc(-c2ccc(-c3ccc(C(=O)N[C@H]4CCCNC(=O)C5C[C@H](N=[N+]=[N-])N5C(=O)C(C(C)O)NC(=O)C(CCc5ccc(O)cc5)NC(=O)C5C[C@@H](O)CN5C(=O)C(C(C)O)NC4=O)cc3)cc2)cc1", "strain": "ATCC CCH442", "value": "0.39 µg/mL"}
{"SMILES": "CCCCCN[C@H]1CCCNC(=O)[C@@H]2C[C@H](N)CN2C(=O)[C@H]([C@@H](C)O)NC(=O)[C@H](CCc2ccc(O)cc2)NC(=O)[C@@H]2C[C@@H](O)CN2C(=O)[C@H]([C@@H](C)O)NC1=O", "strain": "ATCC 38247", "value": "0.2 µg/mL"}
{"SMILES": "CCCCCOc1ccc(-c2ccc(-c3ccc(C(=O)N[C@H]4CCCNC(=O)C5C[C@H](N)CN5C(=O)C(C)NC(=O)C(CCc5ccc(O)cc5)NC(=O)C5C[C@@H](O)CN5C(=O)C(C(C)O)NC4=O)cc3)cc2)cc1", "strain": "ATCC 10231", "value": "0.2 µg/mL"}
{"SMILES": "CCCCCCCCOc1ccc(-c2ccc(C(=O)N[C@H]3CCCNC(=O)[C@@H]4C[C@H](N)CN4C(=O)[C@H]([C@@H](C)O)NC(=O)[C@H](CCc4ccc(O)cc4)NC(=O)[C@@H]4C[C@@H](O)CN4C(=O)[C@H]([C@@H](C)O)NC3=O)cc2)cc1", "strain": "ATCC 62376", "value": "0.2 µg/mL"}
{"SMILES": "Cc1c(Sc2ccccc2)[n+](=O)c2cc(Cl)ccc2n1[O-]", "strain": "Clinical isolate 19", "value": "7.8 µg/mL"}
{"SMILES": "Cc1c(C(=O)c2ccccc2)oc2ccccc12", "strain": "NRRL Y-27077", "value": "25 µg/mL"}
{"SMILES": "CCCCCOc1ccc(-c2ccc(-c3ccc(C(=O)N[C@H]4CCCNC(=O)[C@@H]5C[C@H](N)CN5C(=O)[C@H](CCCN=C(N)N)NC(=O)C(CCc5ccc(O)cc5)NC(=O)[C@@H]5C[C@@H](O)CN5C(=O)[C@H]([C@@H](C)O)NC4=O)cc3)cc2)cc1", "strain": "ATCC 38247", "value": "0.78 µg/mL"}
{"SMILES": "Cc1c(S(=O)(=O)c2ccccc2)[n+](=O)c2cc(Cl)ccc2n1[O-]", "strain": "Clinical isolate 18", "value": "7.8 µg/mL"}
{"SMILES": "O/N=C(\\c1ccc(Cl)cc1)c1oc2ccccc2c1Cn1ccnc1", "strain": "Clinical isolate", "value": "25 µg/mL"}
{"SMILES": "CCCCCOc1ccc(-c2ccc(-c3ccc(C(=O)N[C@H]4CCCNC(=O)C5CN(C(=O)OCc6ccccc6)CN5C(=O)C(C(C)O)NC(=O)C(CCc5ccc(O)cc5)NC(=O)C5C[C@@H](O)CN5C(=O)C(C(C)O)NC4=O)cc3)cc2)cc1", "strain": "ATCC CCH442", "value": "100 µg/mL"}
{"SMILES": "CCCCCCCCNC1CCCNC(=O)[C@@H]2C[C@H](N)CN2C(=O)[C@H]([C@@H](C)O)NC(=O)[C@H](CCc2ccc(O)cc2)NC(=O)[C@@H]2C[C@@H](O)CN2C(=O)[C@H]([C@@H](C)O)NC1=O", "strain": "ATCC 38247", "value": "0.2 µg/mL"}
{"SMILES": "O[C@](Cn1cncn1)(Cn1cnc(/C=C/c2ccc(OCC(F)(F)C(F)F)cc2)n1)c1ccc(F)cc1F", "strain": "Isolate 03-99", "value": "0.03 µg/mL"}
{"SMILES": "C[C@H]1[C@H](O)[C@@H](C)/C=C/C=C/C=C/C=C/C=C/C=C/C=C/[C@H](O[C@@H]2O[C@H](C)[C@@H](O)[C@H](N)[C@@H]2O)C[C@@H]2O[C@](O)(C[C@@H](O)C[C@@H](O)CC[C@H](O)[C@@H](O)C[C@@H](O)CC(=O)O[C@H]1C)C[C@H](O)[C@H]2C(=O)O", "strain": "ATCC64551", "value": "0.5 µg/mL"}
{"SMILES": "CCCCCOc1ccc(-c2ccc(-c3ccc(C(=O)N[C@H]4CCCNC(=O)[C@@H]5C[C@H](N)CN5C(=O)[C@H](CCC(=O)O)NC(=O)C(CCc5ccc(O)cc5)NC(=O)[C@@H]5C[C@@H](O)CN5C(=O)[C@H]([C@@H](C)O)NC4=O)cc3)cc2)cc1", "strain": "ATCC 62376", "value": "0.39 µg/mL"}
{"SMILES": "CCOc1cc2c(cc1F)n([O-])c(C)c(Cl)[n+]2=O", "strain": "Clinical isolate 23", "value": "15.6 µg/mL"}
{"SMILES": "Cc1ccc2oc(C(=O)c3ccc(Cl)cc3)c(C)c2c1", "strain": "Clinical isolate", "value": "50 µg/mL"}
{"SMILES": "CCCCCOc1ccc(-c2ccc(-c3ccc(C(=O)N[C@H]4CCCNC(=O)[C@H]5CCN5C(=O)C(C(C)O)NC(=O)C(CCc5ccc(O)cc5)NC(=O)C5C[C@@H](O)CN5C(=O)C(C(C)O)NC4=O)cc3)cc2)cc1", "strain": "ATCC CCH442", "value": ">100 µg/mL"}
{"SMILES": "Cc1ccc2oc(C(=O)c3ccccc3)c(C)c2c1", "strain": "NRRL Y-27077", "value": "50 µg/mL"}
{"SMILES": "CCCCCOc1ccc(-c2ccc(-c3ccc(C(=O)N[C@H]4CCCNC(=O)[C@@H]5C[C@H](N)CN5C(=O)[C@H](Cc5ccc(O)cc5)NC(=O)C(CCc5ccc(O)cc5)NC(=O)[C@@H]5C[C@@H](O)CN5C(=O)[C@H]([C@@H](C)O)NC4=O)cc3)cc2)cc1", "strain": "ATCC 62376", "value": "1.56 µg/mL"}
{"SMILES": "CCCCCOc1ccc(-c2ccc(-c3ccc(C(=O)N[C@H]4CCCNC(=O)[C@@H]5C[C@H](NC)CN5C(=O)[C@H]([C@@H](C)O)NC(=O)[C@H](CCc5ccc(O)cc5)NC(=O)[C@@H]5C[C@@H](O)CN5C(=O)[C@H]([C@@H](C)O)NC4=O)cc3)cc2)cc1", "strain": "ATCC 62376", "value": "0.2 µg/mL"}
{"SMILES": "CCCCCOc1ccc(-c2ccc(-c3ccc(C(=O)N[C@H]4CCCNC(=O)[C@@H]5C[C@H](NC(=O)CCC(=O)O)CN5C(=O)[C@H]([C@@H](C)O)NC(=O)[C@H](CCc5ccc(O)cc5)NC(=O)[C@@H]5C[C@@H](O)CN5C(=O)[C@H]([C@@H](C)O)NC4=O)cc3)cc2)cc1", "strain": "ATCC CCH442", "value": "1.56 µg/mL"}
{"SMILES": "Cc1c(Sc2ccccc2)[n+](=O)c2cc(C(F)(F)F)ccc2n1[O-]", "strain": "Clinical isolate 12", "value": "31.25 µg/mL"}
{"SMILES": "COc1cc(O)c2c(c1)C(=O)c1c(cc3c(c1O)-c1c(cc(C)c(C(=O)NCC(=O)O)c1O)[C@H](OC1OC(C)C(N(C)C)C(OC4OCC(O)C(O)C4O)C1O)[C@H]3O)C2=O", "strain": "ATCC 32354 (B311)", "value": "3.1 µg/mL"}
{"SMILES": "CCCCCCCOc1ccc(N2CCN(c3ccc(C(=O)N[C@H]4CCCNC(=O)[C@@H]5C[C@H](N)CN5C(=O)[C@H]([C@@H](C)O)NC(=O)[C@H](CCc5ccc(N)cc5)NC(=O)[C@@H]5CCCN5C(=O)[C@H]([C@@H](C)O)NC4=O)cc3)CC2)cc1", "strain": "ATCC 38247", "value": "0.78 µg/mL"}

2 of the rows above, restated:

SMILES | strain | value
Cc1ccc2oc(C(=O)c3ccccc3)c(C)c2c1 | NRRL Y-27077 | 50 µg/mL
CCOc1cc2c(cc1F)n([O-])c(C)c(Cl)[n+]2=O | Clinical isolate 23 | 15.6 µg/mL